Anti-infective test results gathered from many reports (values: NIAID ChemDB through PubChem).

Common to all: target-level tests; species: Hepatitis C virus

ICn: concentration for n% inhibition.

compound	target	measure	tested at	value
CNC(=O)c1c(-c2ccc(F)cc2)oc2cc(N(C)S(C)(=O)=O)c(OCC(=O)Nc3nccs3)cc12	Nonstructural protein 5B	IC50	-	≤0.5 µM
COc1cccc(-c2ccc3cc(-c4nc5cc(C(=O)O)ccc5n4C4CCCCC4)ccc3n2)c1	NS5B polymerase	inhibition	33 µM	93.46%
O=C(CC1NCCc2ccccc21)Nc1ccsc1-c1nc(C(=O)O)c(O)c(=O)[nH]1	HCV polymerase	IC50	-	<25 µM
O=C(N[C@@H](Cc1c[nH]c2ccccc12)C(=O)O)c1cnn2c(C3CCCCC3)c(-c3ccccc3)cnc12	RNA-dependent RNA polymerase	IC50	-	<1 µM
CNC(=O)c1c(-c2ccc(F)cc2)oc2cc(N(Cc3ccc(OC)cc3)S(C)(=O)=O)c(OC(C)C)cc12	Nonstructural protein 5B	IC50	-	≤0.5 µM
O=C(NC(CC1CCCCC1)C(=O)O)c1ccc2c(c1)nc(-c1ccc3nc(-c4ccccc4)cnc3c1)n2C1CCCCC1	NS5B polymerase	inhibition	33 µM	97.4%
CNC(=O)c1c(-c2ccc(F)cc2)oc2cc(-c3c(C)noc3C)c(OCc3c(C)noc3C)cc12	Nonstructural protein 5B	IC50	-	≤0.5 µM
COc1cccc(-c2cc(-c3cc(F)cc(OC)c3)n3nc(C(=O)O)cc3n2)c1	RNA-dependent RNA polymerase	IC50	-	>10 µM
O=C(O)COc1ccc(-c2ccc(Cl)cc2)c(-c2ccc3cc(-c4nc5cc(C(=O)O)ccc5n4C4CCCCC4)ccc3n2)c1	NS5B polymerase	inhibition	33 µM	97.56%
O=C(NCc1cc(Cl)ccc1Cl)Nc1ccsc1-c1nc(C(=O)O)c(O)c(=O)[nH]1	HCV polymerase	IC50	-	<25 µM
Brc1cnn2c(C3CCCCC3)c(-c3ccc(OCc4ccccc4)cc3)cnc12	RNA-dependent RNA polymerase	IC50	-	>10 µM
Cc1ccc(-c2nc3ccc(-c4nc5cc(C(=O)O)ccc5n4C4CCCCC4)cc3nc2-c2ccc(C)cc2)cc1	NS5B polymerase	inhibition	33 µM	99.92%
N[C@H](Cc1ccccc1)C(=O)Nc1ccsc1-c1nc(C(=O)O)c(O)c(=O)[nH]1	HCV polymerase	IC50	-	<25 µM
COc1ccc(-c2ccc(N(C)C)cc2)c(-c2ccc3cc(-c4nc5cc(C(=O)O)ccc5n4C4CCCCC4)ccc3n2)c1	NS5B polymerase	inhibition	100 µM	101%
O=C(O)c1cc2nc(-c3ccc(Cl)cc3Cl)cc(-c3ccccc3)n2n1	RNA-dependent RNA polymerase	IC50	-	>10 µM
O=C(O)c1ccc2c(c1)nc(-c1ccc3nccc(NCCCCO)c3c1)n2C1CCCCC1	NS5B polymerase	inhibition	33 µM	59.65%
O=C(NCCc1ccc(Cl)cc1Cl)Nc1cscc1-c1nc(C(=O)O)c(O)c(=O)[nH]1	HCV polymerase	IC50	-	<25 µM
Oc1ccc(-c2cnc3c(-c4nn[nH]n4)cnn3c2C2CCCCC2)cc1	RNA-dependent RNA polymerase	IC50	-	>10 µM
O=C(Nc1ccsc1-c1nc(C(=O)O)c(O)c(=O)[nH]1)OCc1cccc(CCc2ccccc2)c1	HCV polymerase	IC50	-	<25 µM
CC(C)Cc1c(-c2ccc(OCc3ccccc3)cc2)cnc2c(C(=O)O)cnn12	RNA-dependent RNA polymerase	IC50	-	>10 µM
O=C(Nc1ccsc1-c1nc(C(=O)O)c(O)c(=O)[nH]1)OCCc1c(F)cccc1Cl	HCV polymerase	IC50	-	<25 µM
CNC(=O)c1c(-c2ccc(F)cc2)oc2cc(N(C)S(C)(=O)=O)c(OCc3cccc(C#N)c3)cc12	Nonstructural protein 5B	IC50	-	≤0.5 µM
O=C(NCc1ccc(Cl)cc1Cl)Nc1cscc1-c1nc(C(=O)O)c(O)c(=O)[nH]1	HCV polymerase	IC50	-	<25 µM
O=C1CN(c2c(-c3ccc(OCc4ccccc4)cc3)cnc3c(-c4nn[nH]n4)cnn23)CCN1	RNA-dependent RNA polymerase	IC50	-	>10 µM
O=C(O)c1ccc2c(c1)nc(-c1ccc3nc(-c4ccccc4-c4ccncc4)ccc3c1)n2C1CCCCC1	NS5B polymerase	inhibition	100 µM	98.8%
O=C(NC(Cc1c[nH]c2ccccc12)C(=O)O)c1cnn2c(C3CCCCC3)c(-c3ccc(F)c(F)c3)cnc12	RNA-dependent RNA polymerase	IC50	-	<1 µM
O=C(O)c1ccc2c(c1)nc(-c1ccc3nc(-c4ccccc4Br)ccc3c1)n2C1CCCCC1	NS5B polymerase	inhibition	33 µM	94.18%

2 of the rows above, restated:

compound,target,measure,tested at,value
O=C(O)COc1ccc(-c2ccc(Cl)cc2)c(-c2ccc3cc(-c4nc5cc(C(=O)O)ccc5n4C4CCCCC4)ccc3n2)c1,NS5B polymerase,inhibition,33 µM,97.56%
O=C(CC1NCCc2ccccc21)Nc1ccsc1-c1nc(C(=O)O)c(O)c(=O)[nH]1,HCV polymerase,IC50,-,<25 µM

Neighbouring rows are from separate reports. An empty or dashed field is not shown. Inhibition is in % at the dose shown (toxicity tests: loss of growth or viability).